Tested on: patients with HER2-positive ABC treated with T-DXd
Settings: at data cutoff; 59 patients

trastuzumab deruxtecan [T-DXd]
patients who discontinued T-DXd due to intractable nausea and vomiting: no patients
